# Results of single-concentration screens

The values are deposited in ChEMBL (CHEMBL3988442, “University of Dundee, Small-Polar-MMV Screening Library” (2021)).

Results are given as percent effect. The controls that fix the scale are not given in the record; negative values are as filed. This is part of a subset picked to be rich in strong results.

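Growth of Mycobacterium tuberculosis over 3 days (7H9 medium with glucose and tyloxapol); the read-out is not stated. Concentration: 500 µM. The record gives no direction; compounds that gave an IC50 in retests scored well above the rest, so higher reads as more growth inhibition. Of about 18,000 compounds tested this way, about 1,400 (7.9%) reached 50% or more in at least one test.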

{"compound": "CC(C)(CNC(N)=O)N1CCc2ccccc2C1", "Percent Effect": 17.53}
{"compound": "c1ccc2c(CC3COCCN3)c[nH]c2c1", "stereo": "stereo not given", "Percent Effect": 11.14}
{"compound": "CC(NCCO)c1ccc(Br)s1", "stereo": "stereo not given", "Percent Effect": 11.5}
{"compound": "Cc1cccc2nc(C(=O)NC(C)C)cn12", "Percent Effect": 22.65}
{"compound": "Cn1cc(C(=O)NCCc2ccccc2)ccc1=O", "Percent Effect": 8.446}
{"compound": "O=C(CCN1C(=O)CCC1=O)OCC(=O)c1ccc[nH]1", "Percent Effect": -17.18}
{"compound": "CCOC(=O)c1cnc2c(C#N)c(C)nn2c1N", "Percent Effect": -11.6}
{"compound": "COCC(N)c1ccc(F)c(F)c1", "stereo": "stereo not given", "Percent Effect": 4.387}
{"compound": "O=C(c1cnsn1)N1CCN(Cc2ccc(Cl)s2)CC1", "Percent Effect": 86.7}
{"compound": "CC(=O)Nc1ccc(C2=NN=C(NC(C)C)SC2)cc1", "Percent Effect": 37.65}
{"compound": "Cc1nc(CCN)cc(NC2CCC2)n1", "Percent Effect": 68.28}
{"compound": "CCC1CN(C)c2ccccc2CN1CCOCCO", "stereo": "stereo not given", "Percent Effect": -0.3702}
{"compound": "CCC(c1cccnc1)N(C)C(=O)CNC", "stereo": "stereo not given", "Percent Effect": 7.169}
{"compound": "COCC1CCN(Cc2ccc3c(c2)OCO3)C1", "stereo": "stereo not given", "Percent Effect": 6.628}
{"compound": "CCN(CC(N)=O)C(C)c1cccc(OC)c1", "stereo": "stereo not given", "Percent Effect": 17.76}
{"compound": "CC(N)(CO)c1cccc(O)c1", "stereo": "stereo not given", "Percent Effect": 4.775}
{"compound": "CC1CN(C)CCN1Cc1nnnn1-c1ccccc1", "stereo": "stereo not given", "Percent Effect": -1.517}
{"compound": "CC(C(=O)N(C)Cc1ccncc1)n1cncn1", "stereo": "stereo not given", "Percent Effect": 5.969}
{"compound": "O=C(NC1CC1)C1CCCN1", "stereo": "stereo not given", "Percent Effect": -3.543}
{"compound": "Cc1cc(C(=O)Nc2nc(C)no2)[nH]n1", "Percent Effect": -2.901}
{"compound": "Cc1noc(C)c1CN1CCC(O)CC1", "Percent Effect": -0.2193}
{"compound": "CCc1nnc2n1CC(NC(=O)Cn1cccn1)CC2", "stereo": "stereo not given", "Percent Effect": 5.453}
{"compound": "CS(=O)(=O)CCSCc1ccn(-c2ccc(F)cc2)n1", "Percent Effect": -12.03}
{"compound": "COCCn1cnnc1SCC(=O)NCC(F)(F)F", "Percent Effect": 10.39}
{"compound": "COCCN(CCC#N)S(=O)(=O)c1c(C)nn(C)c1Cl", "Percent Effect": 6.224}
{"compound": "CS(=O)(=O)c1ccc(CN2CCC(O)(CO)CC2)cc1", "Percent Effect": -7.909}
{"compound": "NC1CCC(=O)NC1", "stereo": "stereo not given", "Percent Effect": -18.98}
{"compound": "Cc1cc(C)c(CNc2ncnc3[nH]ncc23)c(=O)[nH]1", "Percent Effect": -2.183}
{"compound": "CC1(C)C(=O)NCCN1C(=O)C1CCC1", "Percent Effect": 5.54}
{"compound": "CCN(Cc1nc(C)cs1)[C@H]1COC[C@@H]1O", "Percent Effect": 5.961}
{"compound": "CC1(C#N)CCNCC1", "Percent Effect": 6.384}
{"compound": "c1coc(C2CNCCO2)c1", "stereo": "stereo not given", "Percent Effect": 3.146}
{"compound": "CN1CCN(C(=O)CC2Cc3ccccc3C2)CC1", "Percent Effect": 70.1}
{"compound": "CCN(CC)C(=O)C1CCCN1Cc1cccnc1", "stereo": "stereo not given", "Percent Effect": -12.84}
{"compound": "Cc1ccc(C2CSCCN2)o1", "stereo": "stereo not given", "Percent Effect": -1.898}
{"compound": "NCc1ccc(OCC2CC2)nc1", "Percent Effect": 41.96}
{"compound": "CN(Cc1ccccc1)C(=O)CN", "Percent Effect": 26.1}
{"compound": "CCN(CCn1cccn1)C(=O)c1cc(CO)ccn1", "Percent Effect": 0.8347}
{"compound": "COCCCN(C)S(=O)(=O)c1ccc(Br)cn1", "Percent Effect": 71.94}
{"compound": "Cc1ccc(C(C)NC(=O)NCCN2CCOCC2)o1", "stereo": "stereo not given", "Percent Effect": 11.27}
{"compound": "COc1cccc(N2CC(N)CC2=O)c1", "stereo": "stereo not given", "Percent Effect": 25.09}
{"compound": "CN(C)C(CN)C1CC1", "stereo": "stereo not given", "Percent Effect": 5.846}
{"compound": "O=C(CCc1ccccc1)NC1CCCCNC1=O", "stereo": "stereo not given", "Percent Effect": -1.723}
{"compound": "Nc1nccnc1C(=O)NCc1ccccc1", "Percent Effect": 55.97}
{"compound": "CN(C)C(=O)CCN1CCCC1c1ccsc1", "stereo": "stereo not given", "Percent Effect": 53.25}
{"compound": "NCC(=O)N1CCCC(CCc2c(F)cccc2F)C1", "stereo": "stereo not given", "Percent Effect": 83.68}
{"compound": "Cc1ccc(OCC(=O)NCCO)c(Br)c1", "Percent Effect": 48.58}
{"compound": "CN(C)c1ccc2c(c1)OCC(=O)N2", "Percent Effect": 0.2965}
{"compound": "CC(C)(O)CN1CCN(C(=O)CN2CSCC2=O)CC1", "Percent Effect": -2.112}
{"compound": "Cc1cc(C(=O)Nc2ccc3c(c2)CCN3)n(C)n1", "Percent Effect": 38.65}
{"compound": "CC(C)c1cc(N)[nH]n1", "Percent Effect": 55.18}
{"compound": "Cc1csc(CCN)n1", "Percent Effect": 56.42}
{"compound": "NCC(CO)Cc1cccnc1", "stereo": "stereo not given", "Percent Effect": -1.702}
{"compound": "NC(=O)CCNCCc1ccccc1", "Percent Effect": 13.66}
{"compound": "NC(=O)c1ccon1", "Percent Effect": 10.28}
{"compound": "CN(C)CCO[C@H]1CCOC[C@H]1NC(=O)c1cc[nH]c1", "Percent Effect": 9.781}
{"compound": "CS(=O)(=O)NC(c1ccc(F)cc1)c1cccnc1", "stereo": "stereo not given", "Percent Effect": 50.7}

The last 5 entries again:

| Compound | Percent Effect |
|---|---|
| `NCC(CO)Cc1cccnc1` (stereo not given) | -1.702% |
| `NC(=O)CCNCCc1ccccc1` | 13.66% |
| `NC(=O)c1ccon1` | 10.28% |
| `CN(C)CCO[C@H]1CCOC[C@H]1NC(=O)c1cc[nH]c1` | 9.781% |
| `CS(=O)(=O)NC(c1ccc(F)cc1)c1cccnc1` (stereo not given) | 50.7% |